Assay results from PubChem BioAssay AID1445 (SRMLSC, 2008).
This is a selection; strong and weak results do not stand in their true shares. Measured potencies and affinities stand elsewhere. Active and inactive are the calls of the source.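 How the source made its calls: active means primary inhibition above the hit cutoff, then over 50% inhibition at one or more dose response concentrations (cut at about 23% in these data, passing the limit was not always enough); inconclusive means conflicting primary data, or primary hits not chosen for dose response; inactive means low primary inhibition, or under 50% at every dose.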

Amino acid sequences for entries named in this document (tags omitted).
UniProt O96935, whole entry: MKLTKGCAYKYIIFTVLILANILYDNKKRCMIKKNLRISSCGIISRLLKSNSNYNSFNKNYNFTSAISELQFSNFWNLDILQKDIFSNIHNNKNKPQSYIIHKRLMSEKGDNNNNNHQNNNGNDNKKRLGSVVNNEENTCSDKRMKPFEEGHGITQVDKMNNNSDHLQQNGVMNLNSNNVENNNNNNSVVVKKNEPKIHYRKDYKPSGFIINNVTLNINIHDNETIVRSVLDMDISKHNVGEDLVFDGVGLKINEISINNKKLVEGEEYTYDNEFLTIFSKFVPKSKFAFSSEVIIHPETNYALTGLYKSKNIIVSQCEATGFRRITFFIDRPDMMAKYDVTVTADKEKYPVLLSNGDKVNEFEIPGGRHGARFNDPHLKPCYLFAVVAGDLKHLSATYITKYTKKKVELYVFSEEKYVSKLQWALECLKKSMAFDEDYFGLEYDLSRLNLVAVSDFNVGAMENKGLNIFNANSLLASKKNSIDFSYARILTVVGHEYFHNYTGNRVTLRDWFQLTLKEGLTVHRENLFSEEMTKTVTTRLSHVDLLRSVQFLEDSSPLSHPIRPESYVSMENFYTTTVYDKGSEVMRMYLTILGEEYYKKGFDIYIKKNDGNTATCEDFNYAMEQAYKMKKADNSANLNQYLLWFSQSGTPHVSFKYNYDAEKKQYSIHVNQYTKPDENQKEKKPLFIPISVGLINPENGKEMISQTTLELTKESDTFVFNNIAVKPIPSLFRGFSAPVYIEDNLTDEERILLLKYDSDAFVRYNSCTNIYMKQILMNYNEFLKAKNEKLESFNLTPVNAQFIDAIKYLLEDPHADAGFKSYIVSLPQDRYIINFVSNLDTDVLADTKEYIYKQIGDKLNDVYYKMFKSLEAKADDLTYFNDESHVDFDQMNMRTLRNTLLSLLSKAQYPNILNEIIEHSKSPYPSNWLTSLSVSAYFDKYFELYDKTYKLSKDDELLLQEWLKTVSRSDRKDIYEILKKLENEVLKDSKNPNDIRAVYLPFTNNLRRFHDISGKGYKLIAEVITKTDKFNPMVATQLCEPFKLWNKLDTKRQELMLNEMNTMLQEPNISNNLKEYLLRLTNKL

The compounds below were run against Aminopeptidase N (Plasmodium falciparum (isolate 3D7)) (UniProt O96935) (assay: malaria alanyl aminopeptidase activity blockers – biochemical, fluorogenic H-Leu-NHMec substrate, 1536-well (AID 1445;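 further: plate controls were DMSO full reaction for no effect and no enzyme background for full effect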)). Settings: recombinant M1AAP, H-Leu-NHMec fluorogenic kinetic assay; at 30 µM; active compounds read high.
For O=C(NCC1(N2CCCCC2)CCCCC1)c1cccc([N+](=O)[O-])c1, the inhibition was inactive: 5.54%.
For N#CC1(Nc2ccccc2)CCN(CCc2ccccc2)CC1, the inhibition was inactive: 3.18%.
For COc1ccc(NC2CCN(C(=O)OC(C)(C)C)CC2)cc1, the inhibition was inactive: 7.68%.
In the case of CN1CCN(CCOC(=O)C(O)(c2ccccc2)c2ccccc2)CC1, the inhibition is reported as inactive: 5.38%.
In the case of O=C(NCC1(N2CCOCC2)CCCCC1)c1cc(=O)[nH]c2ccccc12, the inhibition is reported as inactive: 4.61%.
COc1ccc(CN(CCCl)CCCl)cc1Cl was tested, and the inhibition was inactive: 6.92%.
For CN(C)c1cccc(C(=O)NCC2(N3CCCCC3)CCCCC2)c1, the inhibition was inactive: 2.08%.
For CC(C)c1ccc(NC2CCN(C(=O)OC(C)(C)C)CC2)cc1, the inhibition was inactive: 0.37%.
For COc1ccc(C(=O)NCC2(N3CCCCC3)CCCCC2)c(OC)c1OC, the inhibition was inactive: 5.12%.
In the case of O=C(NCC1(N2CCOCC2)CCCCC1)c1cc2ccccc2o1, the inhibition is reported as inactive: -2.4%.
CCOC(=O)N1CCC(Nc2ccc(OC)cc2)CC1 was tested, and the inhibition was inactive: 2.03%.
N#CC1(Nc2ccccc2)CCN(Cc2ccccc2)CC1 was tested, and the inhibition was inactive: 6.08%.
With O=C(OC1CN2CCC1CC2)C1c2ccccc2Oc2ccccc21 (centres undefined) the inhibition was inactive: 0.77%.
In the case of CCOc1ccc(C)cc1CN(CCCl)CCCl, the inhibition is reported as inactive: -0.21%.
With COc1ccc(NC2CCN(CCc3ccccc3)CC2)c(OC)c1 the inhibition was inactive: 5.03%.
With Cc1ccc(OCC(C)C)c(CN(CCCl)CCCl)c1 the inhibition was inactive: 0.49%.
In the case of Fc1ccccc1NC1CCN(Cc2ccccc2)CC1, the inhibition is reported as inactive: 3.06%.
With CCN1CCC(Nc2cccc(F)c2)CC1 the inhibition was inactive: -0.68%.
For CN(C)c1ccc(C(=O)NCC2(N3CCCCC3)CCCCC2)cc1, the inhibition was inactive: 6.83%.
For CCOc1ncccc1C(=O)NCC1(N2CCOCC2)CCCCC1, the inhibition was inactive: 5.93%.
For CC(C)(C)OC(=O)N1CCC(Nc2ccccc2)CC1, the inhibition was inactive: -0.03%.
With CCC(CO)(C(=O)OC1CN2CCC1CC2)c1ccccc1 (centres undefined) the inhibition was inactive: 6.18%.
COc1cc(OC)cc(C(=O)NCC2(N3CCOCC3)CCCCC2)c1 was tested, and the inhibition was inactive: 2.15%.
For CCCOc1ccc(C)cc1CN(CCCl)CCCl, the inhibition was inactive: 4.5%.
For COc1ccc(C(=O)NCC2(N3CCOCC3)CCCCC2)cc1OC, the inhibition was inactive: -0.25%.
In the case of N/C(=N\O)c1c(N)no[n+]1[O-], the inhibition is reported as inactive: 1.29%.
For O=C(OC1CN2CCC1CC2)C1c2ccccc2C=Cc2ccccc21 (centres undefined), the inhibition was inactive: 7.7%.
With N#Cc1ccc(C(=O)NCC2(N3CCCCC3)CCCCC2)cc1 the inhibition was inactive: 3.89%.
For c1ccc(CN2CCC(Nc3ccccc3)CC2)cc1, the inhibition was inactive: 1.38%.
